These are literature values, as cited in PMC4670578.

Where two headings read alike, the source gives them in different places.

Usually pKa stands for the pH at which an ionisable group is half protonated.

In data set [1] the target is T1, His37 (UniProt position 37, IIGILHLILWI). The settings on record: M2TM tetramer in raft-like (viral-mimetic) membrane.
Data set [2] addresses T1, His37. The data set is described as follows: NMR. To be noted: M2TM tetramer in lipid environment.

With “M2 transmembrane domain peptide (M2TM) (Influenza A virus (strain not stated))”, the pKa is reported as 7.6 with His37 [1] and 8.2 in the data set with His37 [2].
